Pooled drug test results. Numbers come from NIAID ChemDB, via PubChem.

Shared fields: enzyme or target tests; organism: HIV-1; target: Reverse transcriptase

Lines come from different laboratories, so protocols vary. An empty or dashed field is not shown. Percent inhibition refers to the dose given; in toxicity tests it is the harm to the cells. ICn: concentration for n% inhibition. Fold resistance has wild type as its base.

| structure | changes | method | measure | strain or isolate | tested at | value |
|---|---|---|---|---|---|---|
| C1=Cc2cccnc2N(C2CC2)c2ncccc21 | - | nucleotide incorporation | inhibition | - | 1 µM | 98% |
| O=c1c2cccn2c2ccccc2n1CCNC(=S)Nc1ccc(Cl)cn1 | - | nucleotide incorporation | Ki | - | - | 0.1 µM |
| O=C1CSC(c2c(Cl)cncc2Cl)N1n1cnnc1 | - | RT activity / ELISA / absorbance | inhibition | - | 10 µg/mL | 25.31% |
| C/C=C/CSc1cc(NC(=S)c2ccsc2C)ccc1Cl | RT-M184V | - | fold resistance | - | - | 1.07 |
| O=C1CSC(c2c(Cl)ncnc2Cl)N1c1nccs1 | - | RT activity / ELISA / absorbance | inhibition | - | 100 µg/mL | 42.16% |
| O=C1c2ccncc2C(=O)N1CCNC(=S)Nc1ccc(Br)cn1 | RT-L100I | nucleotide incorporation | fold resistance | - | - | 14.3 |
| O=C(O)Cn1cnc2c(Oc3ccccc3[N+](=O)[O-])nc(NC(=O)OCc3ccccc3)nc21 | L100I | nucleotide incorporation / radiometric | Ki | NNRTI-resistant | - | 43 µM |
| Cc1cc(S(N)(=O)=O)ccc1NC(=O)COc1ccc(Cl)cc1C(=O)c1cc(Cl)cc(C#N)c1 | RT-Y188C | fluorescence | IC50 | - | - | 0.0031 µM |
| COc1ccc(Oc2ccc(C(=O)O)cc2NC(=O)Nc2c(C)cccc2C)cc1 | K103N | scintillation proximity / radiometric | IC50 | - | - | >5 µM |
| Cc1c(Sc2ccccc2)n(COCCO)c(=O)[nH]c1=O | RT-Y181I | - | fold resistance | - | - | 8 |
| Nc1ccn([C@H]2CC[C@@H](COP(=O)(O)OP(=O)(O)OP(=O)(O)O)O2)c(=O)n1 | RT-K65R | nucleotide incorporation / radiometric | Ki | - | - | 1.4 µM |
| Cc1ccc(N2C(=O)CSC2c2c(Cl)ncnc2Cl)nc1 | - | RT activity / ELISA / absorbance | inhibition | - | 10 µg/mL | 0% |
| O=c1c2cccn2c2ccccc2n1CCNC(=S)Nc1ccc(Br)cn1 | - | nucleotide incorporation | Ki | - | - | 0.058 µM |
| Nc1ccn([C@H]2CC[C@@H](COP(=O)(O)OP(=O)(O)OP(=O)(O)O)O2)c(=O)n1 | RT-Y181I | RT activity | fold resistance | - | - | 2 |
| Cc1ccc2c(c1)n(CCNC(=S)Nc1ccc(Br)cn1)c(=O)c1cccn12 | RT-L100I | nucleotide incorporation | Ki | - | - | 0.35 µM |
| COc1ccc2c(c1)N(C(=O)OC(C)C)[C@@H](CSC)C(=S)N2 | RT-K104R | scintillation proximity / radiometric | IC50 | - | - | 0.08 µM |
| Nc1ncnc2c1ncn2[C@@H]1O[C@H](COP(=O)(O)OP(=O)(O)OP(=O)(O)O)C[C@@H]1F | RT-A62V V75I F77L F116Y Q151M | nucleotide incorporation / radiometric | Ki | - | - | 14 µM |
| CC(C)=CCOc1cc(NC(=S)c2ccoc2C)ccc1Cl | RT-Y188L | - | fold resistance | - | - | 31.25 |
| Nc1ncnc2c1ncn2CCOCP(=O)(O)OP(=O)(O)OP(=O)(O)O | - | nucleotide incorporation / radiometric | Ki | - | - | 0.21 µM |
| Cc1occc1C(=S)Nc1ccc(Cl)c(/C=N/OC(C)(C)C)c1 | RT-L100I | - | fold resistance | - | - | 4.55 |
| CC(C)=CCN1Cc2cccc3[nH]c(=S)n(c23)C[C@@H]1C | RT-Q161L H208Y | - | fold resistance | - | - | 1.9 |